Laboratory results: publication PMC10574006, “Two Different Isocitrate Dehydrogenases from Pseudomonas aeruginosa: Enzymology and Coenzyme-Evolutionary Implications” (International Journal of Molecular Sciences, 2023)

Columns and labels:
[1] = system: NC(=O)c1ccc[n+]([C@@H]2O[C@H](COP(=O)(O)OP(=O)(O)OC[C@H]3O[C@@H](n4cnc5c(N)ncnc54)[C@H](OP(=O)(O)O)[C@@H]3O)[C@@H](O)[C@H]2O)c1; assay: purified protein; settings: 1 mM DL-isocitrate, 2 mM MnCl2, 50 mM Tris-HCl pH 7.5, 25 °C, varied: cofactor
[2] = system: NC(=O)c1ccc[n+]([C@@H]2O[C@H](COP(=O)(O)OP(=O)(O)OC[C@H]3O[C@@H](n4cnc5c(N)ncnc54)[C@H](O)[C@@H]3O)[C@@H](O)[C@H]2O)c1; assay: purified protein; settings: 1 mM DL-isocitrate, 2 mM MnCl2, 50 mM Tris-HCl pH 7.5, 25 °C, varied: cofactor

| Substance | Km [1] [µM] | kcat [1] [s⁻¹] | Km [2] | kcat [2] [s⁻¹] | kcat/Km [2] [M⁻¹ s⁻¹] | kcat/Km [1] [M⁻¹ s⁻¹] |
| --- | --- | --- | --- | --- | --- | --- |
| PaIDH1 (Pseudomonas aeruginosa PAO1; Y393K) | 74.36 ± 5.28 | 41.32 ± 1.95 | – | – | – | – |
| PaIDH1 (Pseudomonas aeruginosa PAO1; K346D) | 1715.67 ± 133.5 | 39.56 ± 2.43 | 15,368.79 ± 2818 μM | 0.003 ± 0.0003 | – | – |
| PaIDH1 (Pseudomonas aeruginosa PAO1; K346D/V353A/Y347I) | – | – | 4500 ± 157.36 µM | 4.73 ± 0.76 | – | – |
| PaIDH1 (Pseudomonas aeruginosa PAO1; K346D/V353A/Y347I/Y393K) | – | – | 925.1 ± 83.81 µM | 7.04 ± 0.71 | – | – |
| PaIDH2 (Pseudomonas aeruginosa PAO1; H589L/R600I) | 7770.67 ± 270.55 | 16 | 5824.33 ± 346.01 µM | 20.7 | 4000 | 2000 |
| PaIDH2 (Pseudomonas aeruginosa PAO1; H589L/R600D) | 849.33 ± 71.92 | 1.7 | – | – | – | 2000 |
| PaIDH2 (Pseudomonas aeruginosa PAO1; H589L) | 135.33 ± 14.4 | 52.4 | 5927.3 ± 205.25 µM | 10.9 | 2000 | 390000 |
